Tested on: O=C(O)[C@H]1NCC[C@H]1O
Test: purified protein
Details: free enzyme; coupling with NADH

Substance	Km	kcat
AtAcnX (Agrobacterium fabrum str. C58; T72A)	1840 ± 60 µM	6.9 ± 0.217 s⁻¹
AtAcnX (Agrobacterium fabrum str. C58; S293A)	1270 ± 30 µM	1.43 ± 0.025 s⁻¹
AtAcnX (Agrobacterium fabrum str. C58; I206A)	2370 ± 350 µM	2.23 ± 0.267 s⁻¹
AtAcnX (Agrobacterium fabrum str. C58; W35A)	4000 ± 950 µM	0.0365 ± 0.001 s⁻¹
